The subject of the test is Pseudomonas aeruginosa (ATCC strain 15152). The experiment in a line: Bactericidal activity of magnetic particles against Pseudomonas aeruginosa. Particulars: particles suspended at 3 wt % (1 mL + 2 mL bacterial suspension); chlorhexidine 0.2 wt % final; 10 min contact, 37° C.

Experimental findings from patent US8772197B2, “Compositions for chemical and biological defense” (dated 2014) are described below.

Consider `[H]/N=C(\N/C(=N/[H])NCCCCCCNC(=N)NC(=N)Nc1ccc(Cl)cc1)Nc1ccc(Cl)cc1`, for which the Bacterial colonies result is “Not detected”.
